Values quoted from earlier work in publication PMC10222987 (Viruses, 2023).

System: mutant isolates used in this study
Conditions: PA/I38T mutant isolates; cited from earlier work

Structure (SMILES): O=C1c2c(O)c(=O)ccn2N([C@@H]2c3ccccc3SCc3c2ccc(F)c3F)[C@@H]2COCCN12 [baloxavir acid]
- EC50-based fold change (FC) in baloxavir acid susceptibility: 27–57
